Measurements taken from publication PMC3228729, “Localization of ASV Integrase-DNA Contacts by Site-Directed Crosslinking and their Structural Analysis”.
Construct, isoform or probe ends are uncertain for at least one entry. The direction of at least one scale is not stated here. Tags and fusion partners may be left off the protein sequences shown.

Biological target: T1, ASV integrase WT (avian sarcoma virus) (UniProt P03354)
T1 sequence (looked up, limits assumed): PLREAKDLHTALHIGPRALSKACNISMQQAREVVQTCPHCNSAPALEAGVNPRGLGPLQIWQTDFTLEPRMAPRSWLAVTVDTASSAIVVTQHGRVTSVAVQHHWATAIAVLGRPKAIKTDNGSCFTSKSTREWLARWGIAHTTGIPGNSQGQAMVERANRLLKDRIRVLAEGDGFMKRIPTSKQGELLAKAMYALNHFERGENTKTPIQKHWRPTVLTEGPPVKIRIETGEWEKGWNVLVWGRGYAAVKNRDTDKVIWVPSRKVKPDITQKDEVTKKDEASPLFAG
Experiment: photocrosslinking
Details: DNA-borne diazirine; 5-aminouridine replacing T8 of strand 3, carrying aryl diazirine; Photocrosslinking: 40 mM HEPES pH 6.5, 150 mM NaCl, 5% glycerol, 0 C, 10 uM IN, 0.05 uM DNA; disulfide: Buffer 1 adjusted to 250-300 mM NaCl, pH 7.5, on ice; recombinant protein; label: 32P

Sequence: AATGTAGTCTTATGCAATACTC (double strand) [NH2-3.8 linear]
- binding signal (fraction of NH2-3.11 crosslinking): < 0.5
